Results: article PMC7064754
For at least one entry, the source does not settle the construct or the ends of the probe. For some assays here: At least one result comes from cells or an extract, where the contact may be indirect. At least one verdict rests on a figure or table, not on a statement of the authors.

Legend:
[1] = tested on: MCPyV large T antigen (LT-Ag), wild type (Merkel cell polyomavirus); experiment: EMSA; conditions: 5 mM AMP-PNP, EMSA: 30 mM Tris-HCl pH 8.0, 10% glycerol, 25 ng/ul BSA, 3 ng/ul sonicated sperm DNA, 0.5 ng/ul poly(dI-dC), 1 mM PMSF, 20 min, room temperature, protein in a lysate after overexpression, label: 5' 32P
[2] = tested on: MCPyV large T antigen (LT-Ag), wild type (Merkel cell polyomavirus); experiment: DPI-ELISA; conditions: HEK293 nuclear extract; protein in a lysate after overexpression; label: 3' biotin-TEG on strand 1
[3] = tested on: SBP-tagged MCPyV LT-Ag, purified (Merkel cell polyomavirus); experiment: DPI-ELISA; conditions: recombinant protein, protein details: SBP (streptavidin-binding peptide), label: 3' biotin-TEG on strand 1

Sequence | binding result ([1]; nuclear extract of HEK293 Con cells) | binding result ([1]; nuclear extract of HEK293 Kap1 knockout cells) | binding result [2] | binding result ([3]; LT purified from HEK293 Con cells) | binding result ([3]; LT purified from HEK293 Kap1 knockout cells, binding unchanged)
AATTCAAGTTGGCAGAGGCTTGGGGCTCCTAGCCTCCGAGGCCTCTGGAAAAAAAAGAGAGAGGCCTCTGAGGCTTAAGAGGCTTAATTAG / AATTCTAATTAAGCCTCTTAAGCCTCAGAGGCCTCTCTCTTTTTTTTCCAGAGGCCTCGGAGGCTAGGAGCCCCAAGCCTCTGCCAACTTG [MCPyV ori EMSA probe (ori1/ori2)] | binds | binds | – | – | –
TAATTAAGCCTCTTAAGCCTCAGAGGCCTCTCTCTTTTTTTTCCAGAGGCCTCGGAGGCTAGGAGCCCCAAGCCTCTGCC (double strand) [MCPyV minimal ori, biotinylated (ori_bio1/ori_unbio2)] | – | – | binds | binds | binds
